Source: article PMC5762688 (Scientific Reports, 2018)

Target: Importin α2/β1 heterodimer (mouse), tagless recombinant, preformed (mouse, UniProt P52293 1-529; P70168 1-876)
Assay: circular dichroism
Settings: both partners purified

B1: Hendra virus V protein, wild type, tagless recombinant (natural protein)
chain: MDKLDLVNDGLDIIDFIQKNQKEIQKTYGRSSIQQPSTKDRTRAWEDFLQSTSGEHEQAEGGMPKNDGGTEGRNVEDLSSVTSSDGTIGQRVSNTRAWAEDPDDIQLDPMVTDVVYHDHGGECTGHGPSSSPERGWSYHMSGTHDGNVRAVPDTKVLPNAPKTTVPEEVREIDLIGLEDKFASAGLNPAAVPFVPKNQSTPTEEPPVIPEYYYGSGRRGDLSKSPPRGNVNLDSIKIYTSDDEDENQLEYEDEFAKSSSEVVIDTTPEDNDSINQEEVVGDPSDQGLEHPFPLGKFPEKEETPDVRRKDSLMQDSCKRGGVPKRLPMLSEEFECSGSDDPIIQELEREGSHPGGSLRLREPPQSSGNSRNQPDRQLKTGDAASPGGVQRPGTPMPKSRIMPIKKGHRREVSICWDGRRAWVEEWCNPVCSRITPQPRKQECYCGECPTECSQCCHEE
- binding result: binds
